A mixed list of measured activities; the numbers were collected in NIAID ChemDB.

Common to all: growth or infection tests; species: Candida albicans; endpoint: MIC

Blank or dashed fields: not listed here.

SMILES	strain	method	conditions	value
Cc1c(O)cccc1C(=O)N[C@@H](CSc1ccccc1)[C@H](O)CN1C[C@H]2CCCC[C@H]2C[C@H]1C(=O)NC(C)(C)C	I162B			64 µg/mL
CCCCCOc1ccc(-c2ccc(-c3ccc(C(=O)N[C@H]4CCCNC(=O)[C@@H]5C[C@H](N)CN5C(=O)[C@H](CO)NC(=O)C(CCc5ccc(O)cc5)NC(=O)[C@@H]5C[C@@H](O)CN5C(=O)[C@H]([C@@H](C)O)NC4=O)cc3)cc2)cc1	ATCC CCH442			0.1 µg/mL
CC(=O)N1CCN(c2ccc(OC[C@H]3CO[C@](Cn4ccnc4)(c4ccc(Cl)cc4Cl)O3)cc2)CC1	10 isolates	broth dilution	pH 6	0.06 µg/mL
C[C@@H](N1CNc2cc(Cl)ccc2C1=O)[C@](O)(Cn1cncn1)c1ccc(F)cc1F	60 strains			0.07 µg/mL
CC[C@@H]([C@H](C)O)n1ncn(-c2ccc(N3CCN(c4ccc(OC[C@@H]5CO[C@@](Cn6cncn6)(c6ccc(F)cc6F)C5)cc4)CC3)cc2)c1=O	10 isolates	broth dilution	pH 6	0.03 µg/mL
CCCCCOc1ccc(-c2ccc(-c3ccc(C(=O)N[C@H]4CCCNC(=O)C5C[C@H](NC(=O)CCc6ccccc6)CN5C(=O)C(C(C)O)NC(=O)C(CCc5ccc(O)cc5)NC(=O)C5C[C@@H](O)CN5C(=O)C(C(C)O)NC4=O)cc3)cc2)cc1	ATCC 62376			6.25 µg/mL
C[C@@H](n1cnc2cc(NN)ccc2c1=O)[C@](O)(Cn1cncn1)c1ccc(F)cc1F	76 strains			20 µg/mL
CCCCCOc1ccc(-c2ccc(-c3ccc(C(=O)N[C@H]4CCCNC(=O)C5C[C@H](N)CN5C(=O)C(CCCN(C)C)NC(=O)C(CCc5ccc(O)cc5)NC(=O)C5C[C@@H](O)CN5C(=O)C(C(C)O)NC4=O)cc3)cc2)cc1	ATCC 62376			0.39 µg/mL
COC(=O)[C@H]1[C@@H]2C[C@@H](O[C@@H]3O[C@H](C)[C@@H](O)[C@H](N)[C@@H]3O)/C=C/C=C/C=C/C=C/C=C/C=C/C=C/[C@H](C)[C@@H](O)[C@H](C)[C@H](C)OC(=O)C[C@H](O)C[C@H](O)[C@@H](O)CC[C@H](O)C[C@H](O)C[C@](O)(C[C@@H]1O)O2	15 isolates	broth dilution	pH 7	0.25 µg/mL
C[C@@H](n1cnc2cc(N3CCN(c4ccc([N+](=O)[O-])cc4)CC3)ccc2c1=O)[C@](O)(Cn1cncn1)c1ccc(F)cc1F	76 strains			0.63 µg/mL
CCCCCOc1ccc(-c2ccc(-c3ccc(C(=O)N[C@H]4CCCNC(=O)C5C[C@H](NCC(N)CO)CN5C(=O)C(C(C)O)NC(=O)C(CCc5ccc(O)cc5)NC(=O)C5C[C@@H](O)CN5C(=O)C(C(C)O)NC4=O)cc3)cc2)cc1	ATCC 10231			0.39 µg/mL
C[C@H](n1cnc2cc(Cl)ccc2c1=O)[C@@](O)(Cn1cncn1)c1ccc(F)cc1F	406 strains			10 µg/mL
C[C@H]1[C@H](O)[C@@H](C)/C=C/C=C/C=C/C=C/C=C/C=C/C=C/[C@H](O[C@@H]2O[C@H](C)[C@@H](O)[C@H](N)[C@@H]2O)C[C@@H]2O[C@](O)(C[C@@H](O)C[C@@H](O)CC[C@H](O)[C@@H](O)C[C@@H](O)CC(=O)O[C@H]1C)C[C@H](O)[C@H]2C(=O)O	R89-208			0.5 µg/mL
CNc1ccc(C(=O)CC(O)CCC(C)C2OC(=O)CC(O)CC(=O)CC(O)CC(O)CC(O)CC(O)CC3(O)CC(O)C(C(=O)N4CCN(C)CC4)C(CC(O[C@@H]4O[C@H](C)[C@@H](O)[C@H](NC(=O)CN5CCN(C)CC5)[C@@H]4O)/C=C/C=C/C=C/C=C\C=C/C=C/C=C/C2C)O3)cc1	73			0.06 µg/mL
C[C@@H](n1cnc2cc(C(N)=O)ccc2c1=O)[C@](O)(Cn1cncn1)c1ccc(F)cc1F	60 strains			5 µg/mL
CCCCCOc1ccc(-c2ccc(-c3ccc(C(=O)N[C@H]4CCCNC(=O)C5C[C@H](NC(=O)CC)CN5C(=O)C(C(C)O)NC(=O)C(CCc5ccc(O)cc5)NC(=O)C5C[C@@H](O)CN5C(=O)C(C(C)O)NC4=O)cc3)cc2)cc1	ATCC 62376			0.39 µg/mL
CNc1ccc(C(=O)CC(O)CCC(C)C2OC(=O)CC(O)CC(=O)CC(O)CC(O)CC(O)CC(O)CC3(O)CC(O)C(C(=O)NCCN(C)C)C(CC(O[C@@H]4O[C@H](C)[C@@H](O)[C@H](NC(=O)CN5CCN(C)CC5)[C@@H]4O)/C=C/C=C/C=C/C=C\C=C/C=C/C=C/C2C)O3)cc1	200			0.03 µg/mL
Nc1[nH]c(=O)ncc1F	15 isolates	broth dilution	pH 5	0.125 µg/mL
CNc1ccc(C(=O)CC(O)CCC(C)C2OC(=O)CC(O)CC(=O)CC(O)CC(O)CC(O)CC(O)CC3(O)CC(O)C(C(=O)N4CCN(CCO)CC4)C(CC(O[C@@H]4O[C@H](C)[C@@H](O)[C@H](NC(=O)CN5CCN(C)CC5)[C@@H]4O)/C=C/C=C/C=C/C=C\C=C/C=C/C=C/C2C)O3)cc1	200			0.03 µg/mL
Cc1cccc2ncn([C@H](C)[C@](O)(Cn3cncn3)c3ccc(F)cc3F)c(=O)c12	60 strains			0.15 µg/mL
CNc1ccc(C(=O)CC(O)CCC(C)C2OC(=O)CC(O)CC(=O)CC(O)CC(O)CC(O)CC(O)CC3(O)CC(O)C(C(=O)N4CCN(C)CC4)C(CC(O[C@@H]4O[C@H](C)[C@@H](O)[C@H](NC(=O)CN(C)C)[C@@H]4O)/C=C/C=C/C=C/C=C\C=C/C=C/C=C/C2C)O3)cc1	200			0.015 µg/mL
COc1ccc(N2CCN(c3ccc(C(=O)N[C@H]4CCCNC(=O)C5C[C@H](N)CN5C(=O)C(C(C)O)NC(=O)C(CCc5ccc(O)cc5)NC(=O)C5C[C@@H](O)CN5C(=O)C(C(C)O)NC4=O)cc3)CC2)cc1	ATCC 62376			1.56 µg/mL

For reference, 3 entries again:

| SMILES | strain | method | conditions | value |
|---|---|---|---|---|
| CCCCCOc1ccc(-c2ccc(-c3ccc(C(=O)N[C@H]4CCCNC(=O)C5C[C@H](N)CN5C(=O)C(CCCN(C)C)NC(=O)C(CCc5ccc(O)cc5)NC(=O)C5C[C@@H](O)CN5C(=O)C(C(C)O)NC4=O)cc3)cc2)cc1 | ATCC 62376 |  |  | 0.39 µg/mL |
| CCCCCOc1ccc(-c2ccc(-c3ccc(C(=O)N[C@H]4CCCNC(=O)C5C[C@H](NC(=O)CCc6ccccc6)CN5C(=O)C(C(C)O)NC(=O)C(CCc5ccc(O)cc5)NC(=O)C5C[C@@H](O)CN5C(=O)C(C(C)O)NC4=O)cc3)cc2)cc1 | ATCC 62376 |  |  | 6.25 µg/mL |
| CC[C@@H]([C@H](C)O)n1ncn(-c2ccc(N3CCN(c4ccc(OC[C@@H]5CO[C@@](Cn6cncn6)(c6ccc(F)cc6F)C5)cc4)CC3)cc2)c1=O | 10 isolates | broth dilution | pH 6 | 0.03 µg/mL |

Neighbouring rows are from separate reports.